Measured values from several laboratories, pooled; numbers as filed in NIAID ChemDB.

Shared fields: target-level tests; agent: HIV-1; protein: Reverse transcriptase; read by: nucleotide incorporation / radiometric; endpoint: IC50

ICn is the concentration giving n% inhibition. An empty or dashed field is not shown. Two numbers with a dash give a range or band. Rows are shuffled and stem from different studies.

SMILES	changes	strain	value
CCc1ccc(-n2c(Br)nnc2SCC(=O)Nc2ccc(C(=O)NCC(=O)O)cc2Cl)c2ccccc12	RT-Y188L	-	>0.1 µM
CCN1c2ncc(CCOc3ccc(N(C)c4ccc(C(=O)O)cc4)cc3C)cc2C(=O)N(C)c2cccnc21	RT-K103N Y181C	IIIB	0.05–0.1 µM
CCc1ccc(-n2c(Br)nnc2SCC(=O)Nc2ccc(C(=O)NCC3CCCO3)cc2Cl)c2ccccc12	RT-Y188L	-	<0.05 µM
CC(C)[C@H](NC(=O)c1ccc(NC(=O)CSc2nnc(Br)n2-c2ccc(C3CC3)c3ccccc23)c(Cl)c1)C(=O)O	RT-Y188L	-	>0.1 µM
CCc1ccc(-n2c(SCC(=O)Nc3ccc(C(=O)O)cc3Cl)nnc2C(F)(F)F)c2ccccc12	RT-Y188L	-	>0.1 µM
Cc1cc(C(=O)O)ccc1NC(=O)CSc1nnc(C(F)F)n1-c1ccc(C)c2c1CCCC2	RT-Y181C	-	>0.1 µM
COc1ccc2c(C3CC3)ccc(-n3c(Br)nnc3SCC(=O)Nc3ccc(S(N)(=O)=O)cc3Cl)c2c1	RT-Y181C	-	<0.05 µM
CCN1c2ncc(CCOc3ccc(C(=O)O)c4c3CCN(C(C)=O)C4)cc2C(=O)N(C)c2cccnc21	RT-Y188L	-	>1 µM
Cc1cc(C2CC2)cc(C)c1-n1c(Br)nnc1SCC(=O)Nc1ccc(C(=O)O)cc1Cl	-	-	<0.05 µM
NS(=O)(=O)c1ccc(NC(=O)CSc2nnc(Br)n2-c2ccc(C3CC3)cc2OC(F)(F)F)c(Cl)c1	RT-Y181C	-	<0.05 µM
CCN1c2ncc(CCOc3ccc(-c4ccc(C(O)C(=O)O)cc4)cc3C)cc2C(=O)N(C)c2cccnc21	RT-K103N Y181C	IIIB	<0.05 µM
Cc1cc(C(=O)O)ccc1NC(=O)CSc1nnc(C(F)F)n1-c1ccc(C)c2c1CCCC2	RT-Y181C	-	>0.1 µM
CCN1c2ncc(CCOc3ccc(CC(=O)O)c4ccccc34)cc2C(=O)N(C)c2ccc(Cl)nc21	-	WT	<0.1 µM
CCc1ccc(-n2c(SCC(=O)Nc3ccc(C(=O)O)cc3Cl)nnc2C(F)F)c2ccccc12	RT-Y188L	-	>0.1 µM
COC(=O)[C@H](CC(C)C)NC(=O)c1ccc(NC(=O)CSc2nnc(Br)n2-c2ccc(C3CC3)c3ccccc23)c(Cl)c1	RT-Y181C	-	<0.05 µM
CCN1c2ncc(CCOc3ccc(-c4ccc(C(=O)O)s4)cc3)cc2C(=O)N(C)c2cccnc21	-	IIIB	<0.05 µM
NS(=O)(=O)c1ccc(NC(=O)CSc2nnc(C(F)F)n2-c2ccc(C3CCCC3)c3ccccc23)c(Cl)c1	RT-Y181C	-	<0.05 µM
CCOC(=O)CCNC(=O)c1ccc(NC(=O)CSc2nnc(Br)n2-c2ccc(C3CC3)c3ccccc23)c(Cl)c1	RT-Y181C	-	<0.05 µM
O=C(CSc1nnc(Br)n1-c1ccc(C2CC2)c2ccccc12)Nc1ccc(C(=O)N[C@@H](Cc2ccc(O)cc2)C(=O)O)cc1Cl	-	-	<0.05 µM
CCN1c2ncc(CCOc3ccc(S(=O)(=O)NCC(=O)O)c4ccccc34)cc2C(=O)N(C)c2cccnc21	RT-Y188L	-	0.1–1 µM
CCc1ccc(-n2c(Br)nnc2SCC(=O)Nc2ccc(C(=O)O)cc2Cl)c2ccccc12	-	-	<0.05 µM
CCN1c2ncc(CCOc3ccc(-c4ccc(C(=O)O)o4)cc3C)cc2C(=O)N(C)c2cccnc21	RT-K103N Y181C	IIIB	>0.1 µM
CC(C)[C@H](NC(=O)c1ccc(NC(=O)CSc2nnc(Br)n2-c2ccc(C3CC3)c3ccccc23)c(Cl)c1)C(=O)O	RT-Y188L	-	>0.1 µM
CCN1c2ncc(CCOc3ccc(-c4ccc(C(=O)O)s4)cc3C)cc2C(=O)N(C)c2cccnc21	RT-K103N Y181C	IIIB	<0.05 µM
CCN1c2ncc(CCOc3ccc(C4CC4C(=O)O)c4ccccc34)cc2C(=O)N(C)c2ccc(F)nc21	-	WT	<0.1 µM
CCN1c2ncc(CCOc3ccc(NC(=O)/C=C/C(=O)O)cc3C)cc2C(=O)N(C)c2cccnc21	-	IIIB	<0.05 µM
COc1ccc2c(C3CC3)ccc(-n3c(Br)nnc3SCC(=O)Nc3ccc(C(=O)O)cc3Cl)c2c1	RT-Y181C	-	<1.05 µM
CCN1c2ncc(CCOc3ccc(C(=O)NCc4ccc(C(=O)O)cc4)cc3C)cc2C(=O)N(C)c2cccnc21	RT-K103N Y181C	IIIB	<0.05 µM
CCc1ccc(-n2c(SCC(=O)Nc3ccc(C(=O)O)cc3C)nnc2C(F)F)c2ccccc12	-	-	<0.05 µM
CCN1c2ncc(CCOc3ccc(-c4ccc(C(=O)O)o4)cc3)cc2C(=O)N(C)c2cccnc21	-	IIIB	<0.05 µM
CCN1c2ncc(CCOc3cccc4c3ccc[n+]4[O-])cc2C(=O)N(C)c2ccc(Cl)nc21	RT-Y181C	-	0.022 µM

3 of the rows above, restated:

SMILES | changes | strain | value
CCN1c2ncc(CCOc3ccc(-c4ccc(C(=O)O)o4)cc3)cc2C(=O)N(C)c2cccnc21 | - | IIIB | <0.05 µM
CCN1c2ncc(CCOc3ccc(CC(=O)O)c4ccccc34)cc2C(=O)N(C)c2ccc(Cl)nc21 | - | WT | <0.1 µM
CCc1ccc(-n2c(SCC(=O)Nc3ccc(C(=O)O)cc3Cl)nnc2C(F)(F)F)c2ccccc12 | RT-Y188L | - | >0.1 µM